Compound potency records, mixed from different reports. Data source: NIAID ChemDB in PubChem.

Blank or dashed fields: not listed here. ECn is the concentration giving n% inhibition of infection, replication or growth. Inhibition is in % at the dose shown (toxicity tests: loss of growth or viability). ICn: concentration for n% inhibition. Neighbouring rows are from separate reports.

{"SMILES": "Clc1ccc(C2CCc3ccccc3O2)c(Cl)c1", "kind": "culture", "species": "Poliovirus", "strain or isolate": "II (TYPE 2)", "cells": "HEP-2", "measure": "inhibition", "dose": "10 µM", "value": "15%"}
{"SMILES": "CCCCCCCCCCCCC/C=C/[C@@H](O)[C@H](CO[C@@H]1O[C@H](CO)[C@H](O)[C@H](OS(=O)(=O)O)[C@H]1O)NC(=O)CCCCCCCCCCCCCCCCCCCCCCC", "kind": "target", "species": "Influenza A virus", "strain or isolate": "H3N8 A/equine/Fontainebleau/79", "target": "Sialidase", "measure": "inhibition", "dose": "200 µM", "value": "97.1%"}
{"SMILES": "c1ccc(C2COc3ccccc3C2)cc1", "kind": "culture", "species": "Poliovirus", "strain or isolate": "TYPE 2", "cells": "HEP-2", "measure": "inhibition", "dose": "10 µM", "value": "45%"}
{"SMILES": "CNC(=O)C(=O)Nc1ccc2[nH]cc(C[C@H](NC(=O)c3ccc4c(c3)nc(-c3ccoc3)n4C3CCCCC3)C(N)=O)c2c1", "kind": "target", "species": "Poliovirus", "target": "RNA-dependent RNA polymerase", "measure": "IC50", "value": ">25 µM"}
{"SMILES": "CCCCCCCCCCCCCCCCCC(=O)OC[C@@H](COP(=O)(O)OCCNCCO[C@@]1(C(=O)O)O[C@@H]([C@H](O)[C@H](O)CO)[C@H](NC(C)=O)[C@@H](O)[C@H]1F)OC(=O)CCCCCCCCCCCCCCCCC", "kind": "target", "species": "Influenza A virus", "strain or isolate": "H11N3 A/DUCK/HK/44/76", "target": "Sialidase", "measure": "IC50", "value": "250 µM"}
{"SMILES": "NC(=O)[C@H](Cc1c[nH]c2ccc(O)cc12)NC(=O)c1ccc2c(c1)nc(-c1ccoc1)n2C1CCCCC1", "kind": "target", "species": "Poliovirus", "target": "RNA-dependent RNA polymerase", "measure": "IC50", "value": ">25 µM"}
{"SMILES": "Nc1ccn(C[C@@H](CO)OCP(=O)(O)O)c(=O)n1", "kind": "culture", "species": "Variola virus", "strain or isolate": "Isolate Horn", "cells": "VERO", "measure": "EC50", "value": "11 µg/mL"}
{"SMILES": "CCCCCCCCCCCCCCCCCC(=O)OC[C@@H](COP(=O)(O)OCCNCCO[C@@]1(C(=O)O)O[C@@H]([C@H](O)[C@H](O)CO)[C@H](NC(C)=O)[C@@H](O)[C@H]1F)OC(=O)CCCCCCCCCCCCCCCCC", "kind": "target", "species": "Influenza A virus", "strain or isolate": "H12N5 A/DUCK/862/5/80", "target": "Sialidase", "measure": "IC50", "value": "125 µM"}
{"SMILES": "Nc1ccn(C[C@H]2COP(=O)(O)CO2)c(=O)n1", "kind": "culture", "species": "Variola virus", "strain or isolate": "Isolate ETH17", "cells": "VERO", "measure": "EC50", "value": "17 µg/mL"}
{"SMILES": "COc1ccc(C(NC(=O)c2ccc3c(c2)nc(-c2ncc[nH]2)n3C2CCCCC2)C(=O)O)cc1OC", "kind": "target", "species": "Poliovirus", "target": "RNA-dependent RNA polymerase", "measure": "IC50", "value": ">25 µM"}
{"SMILES": "Clc1ccc(C2COc3ccc(Cl)cc3C2)cc1", "kind": "culture", "species": "Poliovirus", "strain or isolate": "TYPE 2", "cells": "HEP-2", "measure": "inhibition", "dose": "10 µM", "value": "0%"}
{"SMILES": "Nc1ccn([C@@H]2C=C(CO)[C@@H](O)[C@H]2O)c(=O)n1", "kind": "culture", "species": "Variola virus", "strain or isolate": "7124", "cells": "VERO", "measure": "EC50", "value": "<0.05 µg/mL"}
{"SMILES": "Nc1nccc2c1ncn2[C@@H]1C=C(CO)[C@@H](O)[C@H]1O", "kind": "culture", "species": "Cowpox virus", "cells": "VERO", "measure": "EC50", "value": ">100 µg/mL"}
{"SMILES": "O=C(O)COc1ccc2[nH]cc(C[C@H](NC(=O)c3ccc4c(c3)nc(-c3ccc(OCC(=O)CCNC(=O)c5ccc(C(=O)c6ccccc6)cc5)cc3)n4C3CCCCC3)C(=O)O)c2c1", "kind": "target", "species": "Poliovirus", "target": "RNA-dependent RNA polymerase", "measure": "IC50", "value": ">25 µM"}
{"SMILES": "Clc1ccc2c(c1)C=C(c1ccccc1)CO2", "kind": "culture", "species": "Poliovirus", "strain or isolate": "SABIN (TYPE 2)", "cells": "HEP-2", "measure": "EC50", "value": "<10 µM"}
{"SMILES": "O=C(N[C@@H](Cc1cc(Br)c(O)c(Br)c1)C(=O)O)c1ccc2c(c1)nc(-c1ccoc1)n2C1CCCCC1", "kind": "target", "species": "Poliovirus", "target": "RNA-dependent RNA polymerase", "measure": "IC50", "value": ">25 µM"}
{"SMILES": "Nc1ncnc2c1ncn2[C@@H]1C=C(CO)[C@@H](O)[C@H]1O", "kind": "culture", "species": "Monkeypox virus", "strain or isolate": "MPX", "cells": "VERO", "measure": "EC50", "value": "0.21 µg/mL"}
{"SMILES": "O=C(N[C@@H](Cc1cccc(-c2nn[nH]n2)c1)C(=O)O)c1ccc2c(c1)nc(-c1ccoc1)n2C1CCCCC1", "kind": "target", "species": "Poliovirus", "target": "RNA-dependent RNA polymerase", "measure": "IC50", "value": ">25 µM"}
{"SMILES": "Clc1ccc(C2=Cc3ccccc3OC2)cc1", "kind": "culture", "species": "Poliovirus", "strain or isolate": "IA (TYPE 2)", "cells": "HEP-2", "measure": "inhibition", "dose": "10 µM", "value": "70%"}

Again, the opening 2 rows:

SMILES	kind	species	strain or isolate	cells	target	measure	dose	value
Clc1ccc(C2CCc3ccccc3O2)c(Cl)c1	culture	Poliovirus	II (TYPE 2)	HEP-2	-	inhibition	10 µM	15%
CCCCCCCCCCCCC/C=C/[C@@H](O)[C@H](CO[C@@H]1O[C@H](CO)[C@H](O)[C@H](OS(=O)(=O)O)[C@H]1O)NC(=O)CCCCCCCCCCCCCCCCCCCCCCC	target	Influenza A virus	H3N8 A/equine/Fontainebleau/79	-	Sialidase	inhibition	200 µM	97.1%